Where two headings read alike, the source gives them in different places.

Test [1] has as its target melittin (Apis mellifera) (UniProt P01501). The following applies: cited from earlier work.
For test [2] the target is unchanged.

One may read the Kd as the free concentration of one partner at which half of the binding sites on the other are occupied at equilibrium, for simple one-to-one binding. With calmodulin (from UniProt P0DP23), the dissociation constant (Kd) in test [1] was 3 nM; in test [2] it was 4.6 nM.

The values are drawn from paper PMC6438201.
